# Experimental data: patent publication US7033788B2, “Protein derived from Agkistrodon saxatilis emelianov and process preparing the same” (priority 2002, dated 2006)
# pIC50: −log10 of the molar value.
# Experiments:
# [1] = tested on: human platelet rich plasma; experiment: Platelet aggregation inhibition assay, ADP-induced (Example 5); assay type: cell-based; details: human PRP, 25° C.
# Protocol: After ADP was added into each of the PRP solutions to induce the platelet aggregation, the turbidity was measured, respectively (see: FIG. 1). In FIG. 1, (•) represents the degree of platelet aggregation inhibition of Saxatilin; (∘), Salmosin (SEQ ID NO: 10); and (▪), GRGDSP (SEQ ID NO: 7), respectively.
# [2] = tested on: HUVEC; experiment: bFGF-stimulated HUVEC proliferation inhibition assay; assay type: cell-based, human; details: 0, 20, 30 μg/ml; 1 ng/ml bFGF; 72 hr; FIG. 3
# Protocol: It has been known that disintegrins containing RGD sequence which is a part of recombinant Saxatilin (49–51 amino acid sequence), suppress the bFGF-stimulated endothelial cell growth. To investigate whether recombinant Saxatilin containing RGD sequence inhibits the endothelial cell proliferation, proliferation inhibition assay was performed using HUVEC. The activity of Saxatilin was compared with that of Salmosin (SEQ ID NO:10), which is known to inhibit the bFGF-stimulated endothelial cell proliferation.
# HUVEC was cultured on 24-well microplate coated with gelatin at 37° C. for 24 hr under an environment of 5% CO2. After the media was replaced with 0.25 ml DMEM containing 5% fetal bovine serum, recombinant Saxatilin obtained from Example 6 and Salmosin were added in a concentration of 0, 20, and 30 μg/ml, respectively. Then, cells were further incubated for 20 min and treated with 1 ng/ml of bFGF solution. After incubation of 72 hr, cells were trypsinized and the cell numbers were counted to determine cell viability (see: FIG. 3).
substance,measurement,setting,value
Salmosin [reference compound],pIC50,[1],6.76
same,effect on HUVEC growth,[2],inhibited the HUVEC growth in a dose-dependent manner
